Measurements from patent US7030150B2, “Benzimidazole compounds and antiviral uses thereof” (Trimeris, Inc., priority 2001, dated 2006).

system: RSV; assay: RSV plaque reduction (PRA) / syncytia formation antiviral assay in Hep2 cells; format: cell-based, Respiratory Syncytial Virus; settings: ratio CC50/IC50, Tables 1-7

SMILES	Selective Index
CCOCCCNCc1nc2ccccc2n1Cc1nc2ccccc2[nH]1 [compound 159]	204
CC1CCCCN1CCCNCc1nc2ccccc2n1Cc1nc2ccccc2[nH]1 (stereo not drawn) [compound 160]	46
Fc1cccc(F)c1CNCc1nc2ccccc2n1Cc1nc2ccccc2[nH]1 [compound 161]	172
CCN(CC)CCNCc1nc2ccccc2n1Cc1nc2ccccc2[nH]1 [compound 162]	333
Clc1ccc(CCNCc2nc3ccccc3n2Cc2nc3ccccc3[nH]2)cc1 [compound 163]	36
CNCc1nc2ccccc2n1Cc1nc2ccccc2[nH]1 [compound 164]	125
c1ccc2[nH]c(Cn3c(CNC4CCCCC4)nc4ccccc43)nc2c1 [compound 165]	57
O=c1[nH]ccn1CCNCc1nc2ccccc2n1Cc1nc2ccccc2[nH]1 [compound 166]	154
Fc1ccc(CCNCc2nc3ccccc3n2Cc2nc3ccccc3[nH]2)cc1 [compound 167]	256
c1ccc(CC(NCc2nc3ccccc3n2Cc2nc3ccccc3[nH]2)c2ccccc2)cc1 (stereo not drawn) [compound 168]	20
c1ccc2[nH]c(Cn3c(CNCc4ccc5c(c4)OCO5)nc4ccccc43)nc2c1 [compound 169]	76
c1ccc2[nH]c(Cn3c(CNCC4CCCO4)nc4ccccc43)nc2c1 (stereo not drawn) [compound 170]	588
Clc1ccc(CNCc2nc3ccccc3n2Cc2nc3ccccc3[nH]2)cc1Cl [compound 171]	62
CN1CCCC1CCNCc1nc2ccccc2n1Cc1nc2ccccc2[nH]1 (stereo not drawn) [compound 172]	136
Fc1cc(F)cc(CNCc2nc3ccccc3n2Cc2nc3ccccc3[nH]2)c1 [compound 173]	8
CN(C)CCCNCc1nc2ccccc2n1Cc1nc2ccccc2[nH]1 [compound 174]	67
COc1ccccc1CCNCc1nc2ccccc2n1Cc1nc2ccccc2[nH]1 [compound 175]	278

SMILES	Selective Index
CCCCC(CO)NCc1nc2ccccc2n1Cc1nc2ccccc2[nH]1 (stereo not drawn) [compound 176]	196
c1ccc2[nH]c(Cn3c(CNC4CCCC4)nc4ccccc43)nc2c1 [compound 177]	3333
c1ccc2c(c1)CC(NCc1nc3ccccc3n1Cc1nc3ccccc3[nH]1)C2 [compound 178]	70
Clc1ccc(CCNCc2nc3ccccc3n2Cc2nc3ccccc3[nH]2)c(Cl)c1 [compound 179]	45
c1ccc2c(NCc3nc4ccccc4n3Cc3nc4ccccc4[nH]3)cccc2c1 [compound 180]	35
COc1cccc(CNCc2nc3ccccc3n2Cc2nc3ccccc3[nH]2)c1OC [compound 181]	143
CCOCCCNCc1nc2ccccc2n1Cc1nc2ccccc2[nH]1 [compound 182]	370
Cc1cccc(CNCc2nc3ccccc3n2Cc2nc3ccccc3[nH]2)c1 [compound 183]	313
c1ccc2[nH]c(Cn3c(CN4CCOCC4)nc4ccccc43)nc2c1 [compound 195]	10000
FC(F)(F)c1ccc(N2CCN(Cc3nc4ccccc4n3Cc3nc4ccccc4[nH]3)CC2)nc1 [compound 196]	7600
COc1ccc(N2CCN(Cc3nc4ccccc4n3Cc3nc4ccccc4[nH]3)CC2)cc1 [compound 197]	3000
O=C(c1ccco1)N1CCN(Cc2nc3ccccc3n2Cc2nc3ccccc3[nH]2)CC1 [compound 198]	3300
c1ccc2[nH]c(Cn3c(CN4CCCC4)nc4ccccc43)nc2c1 [compound 199]	1000
c1ccc2[nH]c(Cn3c(CN4CCC4)nc4ccccc43)nc2c1 [compound 200]	54.3
C1=CCN(Cc2nc3ccccc3n2Cc2nc3ccccc3[nH]2)C1 [compound 201]	292.3
C1=CCN(Cc2nc3ccccc3n2Cc2nc3ccccc3[nH]2)CC1 [compound 202]	125
